According to paper PMC10897926 (Journal of Natural Products, 2024):

What was measured:
[1] = tested on: P. vivax liver schizonts; assay: P. vivax liver stage assay, radical cure mode: liver schizonts; format: cell-based, Plasmodium vivax; conditions: for P. vivax schizont pEC50: -log of EC50 in [M], mean ± SD, radical cure mode
[2] = tested on: P. falciparum (strain W2) asexual blood stage parasites; assay: P. falciparum asexual blood stage (ABS) assay, high content imaging; format: cell-based, Plasmodium falciparum; conditions: 72 h; for P. falciparum ABS (W2) pEC50: -log of EC50 in [M], mean ± SD of independent experiments
[3] = tested on: P. vivax hypnozoites; assay: P. vivax liver stage assay, radical cure mode: hypnozoites; format: cell-based, Plasmodium vivax; conditions: for P. vivax hypnozoite pEC50: -log of EC50 in [M], mean ± SD, radical cure mode

| Molecule | P. vivax schizont pEC50 [1] | EC50 ([1]; read-out: P. vivax schizont EC50, liver schizonts in primary human hepatocytes, treated days 5-7 postinfection, read day 12, two independent experiments) | P. falciparum ABS (W2) pEC50 [2] | EC50 ([2]; read-out: P. falciparum ABS (W2) EC50, ring stage parasites, geometric mean of three independent experiments) | P. vivax hypnozoite pEC50 [3] | EC50 ([3]; read-out: P. vivax hypnozoite EC50, mature hypnozoites in primary human hepatocytes, treated days 5-7 postinfection, read day 12, two independent experiments) |
| --- | --- | --- | --- | --- | --- | --- |
| verrucarin A | 8.39 ± 0.82 | 4.07 nM | 9.35 ± 0.04 | 0.45 nM | 7.51 ± 0.11 | 30.9 nM |
| CC1=C[C@H]2O[C@@H]3C[C@@H](O)[C@](C)([C@@]2(CO)CC1)[C@@]31CO1 | 5.00 ± 0.00 | – | 5.36 ± 0.20 | – | 5.48 ± 0.68 | – |
